Results of unrelated studies side by side (data: NIAID ChemDB).

All rows: target-level tests

Inhibition is in % at the dose shown (toxicity tests: loss of growth or viability).

structure	target	strain	read-out	changes	species	dose	read by	value
CC(C)c1cc(C(C)C)c(C(=O)Nc2nnc(NCC(c3ccccc3)c3ccccc3)s2)c(C(C)C)c1	Polymerase	-	IC50	-	Human cytomegalovirus	-	-	>25 µM
Clc1cc(CN2CCCNCCNCCCNCC2)cc(Cl)n1	CXCR4	WT	IC50	-	-	-	-	0.42 µM
O=C(O)CN1C(=O)C(=Cc2ccc(-c3cccc(C(F)(F)F)c3)o2)SC1=S	NS5 polymerase	-	IC50	-	Bovine viral diarrhea virus	-	-	≤1 µM
FC(F)(F)c1cc(-c2cncc(N3CCN(c4ccncc4)CC3)n2)cc(C(F)(F)F)c1	UL97 kinase	-	inhibition	-	Cytomegalovirus	10 µM	-	>15%
O=C(O)c1cc2nc(-c3cccc(Cl)c3)cc(-c3ccc(Cl)cc3)n2n1	RNA-dependent RNA polymerase	-	IC50	-	Hepatitis C virus	-	-	>10 µM
COc1ccccc1N1CCN(c2cncc(-c3ccc4ccccc4c3)n2)CC1	UL97 kinase	-	IC50	-	Cytomegalovirus	-	-	<10 µM
Cc1ccc(-c2ccc(C=C3SC(=S)N(CCC(=O)O)C3=O)o2)s1	NS5 polymerase	-	IC50	-	Bovine viral diarrhea virus	-	-	≤1 µM
NC(=O)c1ccc(-c2cncc(N3CCN(c4cccc(Cl)c4)CC3)n2)cc1	UL97 kinase	-	inhibition	-	Cytomegalovirus	1 µM	-	<50%
O=C(CCCCCl)Nc1nnc(NCc2ccc3c(c2)OCO3)s1	Polymerase	-	IC50	-	Human cytomegalovirus	-	-	<25 µM
O=C1O[C@H]2C(O)O[C@@H]3COC(=O)c4cc(O)c(O)c(O)c4-c4c(cc(c(O)c4O)Oc4c(cc(O)c(O)c4O)C(=O)O[C@@H]4[C@@H](OC(=O)c5cc(O)c(O)c(O)c5)[C@@H]5OC(=O)c6cc(O)c(O)c(O)c6-c6c(cc7c(c6O)OC6C(O7)C1=CC(=O)C6(O)O)C(=O)OC[C@H]5O[C@H]4O)C(=O)O[C@H]3[C@@H]2OC(=O)c1cc(O)c(O)c(O)c1	DNA polymerase	-	inhibition	-	Epstein-Barr virus	7.5 µg/mL	-	54.3%
O=C(O)c1cc2nc(-c3ccc(Cl)cc3)cc(-c3ccc(F)cc3)n2n1	RNA-dependent RNA polymerase	-	IC50	-	Hepatitis C virus	-	-	>10 µM
O=C(/C=C/c1ccccc1)Nc1nnc(NCC2CCCCC2)s1	Polymerase	-	IC50	-	Human cytomegalovirus	-	-	>25 µM
Fc1ccc(-c2cncc(N3CCN(c4ccc(C(F)(F)F)cc4)CC3)n2)cc1	UL97 kinase	-	inhibition	-	Cytomegalovirus	10 µM	-	>15%
O=C(O)c1ccc(N2C(=O)C(=Cc3ccccc3)SC2=S)cc1	NS5 polymerase	-	IC50	-	Bovine viral diarrhea virus	-	-	≤1 µM
O=C(N[C@@H](C(=O)O)C1CCCCC1)c1cnn2c(C3CCCCC3)c(-c3ccc(F)cc3)cnc12	RNA-dependent RNA polymerase	-	IC50	-	Hepatitis C virus	-	-	<1 µM
COc1ccc(-c2cncc(N3CCN(c4ccccc4OC)CC3)n2)cc1OC	UL97 kinase	-	IC50	-	Cytomegalovirus	-	-	<10 µM
O=C(O)CCN1C(=O)C(=Cc2ccc(-c3cc4ccccc4s3)o2)SC1=S	NS5 polymerase	-	IC50	-	Bovine viral diarrhea virus	-	-	≤1 µM
O=C(/C=C/c1ccccc1Cl)Nc1nnc(NCc2ccccn2)s1	Polymerase	-	IC50	-	Human cytomegalovirus	-	-	<25 µM
Cc1ccnc(C=C2SC(=S)N(c3ccc(C(=O)O)cc3)C2=O)c1	NS5 polymerase	-	IC50	-	Bovine viral diarrhea virus	-	-	≤1 µM
FC(F)(F)c1cccc(N2CCN(c3cncc(-c4ccc5ccccc5c4)n3)CC2)c1	UL97 kinase	-	inhibition	-	Cytomegalovirus	10 µM	-	>15%
O=C(O)c1ccc(N2C(=O)/C(=C\c3ccc(-c4cc(C(F)(F)F)ccc4Cl)o3)SC2=S)cc1	NS5 polymerase	-	IC50	-	Bovine viral diarrhea virus	-	-	≤1 µM
Nc1nc2c(ncn2[C@H]2CO[C@@H](COP(=O)(O)OP(=O)(O)OP(=O)(O)O)O2)c(=O)[nH]1	Reverse transcriptase	-	fold resistance	RT-K65R Q151M	HIV	-	radiometric	15
N#Cc1ccc(-c2cncc(N3CCN(c4ccncc4)CC3)n2)cc1	UL97 kinase	-	inhibition	-	Cytomegalovirus	1 µM	-	<50%
O=C(Nc1nnc(NCC(c2ccccc2)c2ccccc2)s1)c1cc(F)cc(F)c1	Polymerase	-	IC50	-	Human cytomegalovirus	-	-	>25 µM
N#CNC(=O)c1cnn2c(C3CCCCC3)c(-c3ccc(OCc4ccccc4)cc3)cnc12	RNA-dependent RNA polymerase	-	IC50	-	Hepatitis C virus	-	-	1–10 µM
O=C(O)c1ccc(N2C(=O)C(=Cc3ccc(-c4ncc(C(F)(F)F)cc4Cl)o3)SC2=S)cc1	NS5 polymerase	-	IC50	-	Bovine viral diarrhea virus	-	-	≤1 µM
O=C(Nc1nnc(NCc2ccncc2)s1)c1ccc(I)cc1	Polymerase	-	IC50	-	Human cytomegalovirus	-	-	>25 µM
CC(=O)c1ccc(-c2ccc(C=C3SC(=S)N(c4ccc(C(=O)O)cc4)C3=O)o2)cc1	NS5 polymerase	-	IC50	-	Bovine viral diarrhea virus	-	-	≤1 µM
CCOc1ccc2ccccc2c1C(=O)Nc1nnc(NC2CCC2)s1	Polymerase	-	IC50	-	Human cytomegalovirus	-	-	>25 µM
c1cc(COc2ccc(-c3cnc4c(-c5nn[nH]n5)cnn4c3C3CCCCC3)cc2)ccn1	RNA-dependent RNA polymerase	-	IC50	-	Hepatitis C virus	-	-	<1 µM
Oc1cc(O)c2c(c1)O[C@H](c1cc(O)c(O)c(O)c1)[C@@H](O)C2	DNA polymerase	-	inhibition	-	Epstein-Barr virus	5 µg/mL	-	21.9%
c1cc(-c2cnc3c(-c4nn[nH]n4)cnn3c2C2CCCCC2)ccc1Oc1ccc2c(c1)OCO2	RNA-dependent RNA polymerase	-	IC50	-	Hepatitis C virus	-	-	1–10 µM
OCc1ccc(-c2cncc(N3CCN(c4ccccn4)CC3)n2)cc1	UL97 kinase	-	inhibition	-	Cytomegalovirus	1 µM	-	<50%
CCOC(=O)c1cnn2c(-c3ccccc3)c(-c3ccc(Oc4ccccc4)cc3)cnc12	RNA-dependent RNA polymerase	-	IC50	-	Hepatitis C virus	-	-	>10 µM
CCCc1ccc(-c2ccc(C=C3SC(=S)N(c4ccc(C(=O)O)cc4)C3=O)o2)cc1	NS5 polymerase	-	IC50	-	Bovine viral diarrhea virus	-	-	≤1 µM
Cc1ccc(-c2cncc(N3CCN(c4ccccc4F)CC3)n2)cc1	UL97 kinase	-	inhibition	-	Cytomegalovirus	10 µM	-	>15%
c1ccc(COc2ccc(-c3cnc4c(-c5nn[nH]n5)cnn4c3-c3ccccc3)cc2)cc1	RNA-dependent RNA polymerase	-	IC50	-	Hepatitis C virus	-	-	>10 µM

An empty or dashed field is not shown. ICn is the concentration giving n% inhibition. Two numbers with a dash give a range or band. Fold resistance: result on the changed form divided by that on wild type. Conditions beyond the fields shown may differ between rows.